Reference: article PMC5125695, “Antiviral Efficacy of Verdinexor In Vivo in Two Animal Models of Influenza A Virus Infection” (PLoS ONE, 2016)

Tested on: Influenza A/WSN/33
Assay: In vitro drug resistance by serial passage in A549 cells
Assay type: cell-based
Conditions: passaged with 0.2 μM verdinexor, DMSO pre-treated test cells

## O=C(/C=C\n1cnc(-c2cc(C(F)(F)F)cc(C(F)(F)F)c2)n1)NNc1ccccn1 [verdinexor]
  Viral growth and/or fitness of virus passaged in the presence of verdinexor: apparent overall reduction of viral growth and/or fitness
